Here are results for three molecules from publication PMC5036187 (Scientific Reports, 2016).

The EC50 is the concentration giving half of the maximal effect.

Assay [1] addresses Glypican-3 (GPC3) on GPC3+ cells (cell line not stated for these values) (Homo sapiens, UniProt P51654). The experiment in a line: flow cytometry on cells. A general note: A flow cytometer gives signals particle by particle.
The target in assay [2] is Glypican-3 (GPC3) on liver cancer cell lines (HepG2; Hep3B) (Homo sapiens (endogenous, HepG2), UniProt P51654). The experiment in a line: cell-based or functional assay.

B1: YP9.1 immunotoxin (mouse YP9.1 scFv fused to PE38) (scFv, V domains shown)
VH: EVQLVETGGGLVQPEGSLKLSCATSGFNFNTNAMNWVRQAPGKGLEWVARVRNKTNNYATYYADSVKDRFTISRDDSQRMVFLQMNNLKTEDTAIYYCVAGNSFAYWGQGTLVTVSP
VL: not shown
The molecule B1 gave a 50% effective concentration (EC50) in assay [1] of 1.8 nM.

B2: humanized YP9.1 version c immunotoxin (hYP9.1c scFv fused to PE38) (scFv, V domains shown)
VH: EVQLVESGGGLVQPGGSLRLSCAASGFNFNTNAMNWVRQAPGKGLEWVGRVRNKTNNYATYYADSVKDRFTISRDDSKRMVYLQMNSLKTEDTAVYYCVAGNSFAYWGQGTLVTVS
VL: DIVMTQSPDSLAVSLGERATINCKSSQSLLYSSNQKNYLAWYQQKPGQPPKLLIYWASTRESGVPDRFSGSGSGTDFTLTISSLQAEDVAVYYCQQYYNYPLTFGQGTKLEIK
Consider B2, for which the “cytotoxicity against HepG2 cells, fold loss after humanization” value in assay [2] was determined as 2.9 fold.

B3: humanized YP9.1 version b immunotoxin (hYP9.1b scFv fused to PE38) (scFv, V domains shown)
VH: EVQLVESGGGLVQPGGSLRLSCAASGFNFNTNAMNWVRQAPGKGLEWVGRVRNKTNNYATYYADSVKDRFTISRDDSKNSLYLQMNSLKTEDTAVYYCVAGNSFAYWGQGTLVTVS
VL: DIVMTQSPDSLAVSLGERATINCKSSQSLLYSSNQKNYLAWYQQKPGQPPKLLIYWASTRESGVPDRFSGSGSGTDFTLTISSLQAEDVAVYYCQQYYNYPLTFGQGTKLEIK
Turning to B3, in assay [1], the EC50 is 6.7 nM. Further, in assay [2], the “cytotoxicity against Hep3B cells, fold loss after humanization (against YP9.1IT)” value came to 2.5 fold and the “cytotoxicity against HepG2 cells, fold loss after humanization (against YP9.1IT)” value worked out at 5.2 fold.
